Measured values as given in PubChem BioAssay (NCI).
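Growth conditions: 96-well plates. Treatment: test compound, 48 hours, 5 concentrations. Analysis: linear interpolation between bracketing concentrations; unreached endpoints set to highest concentration. GI50 is the concentration that inhibits growth by half. The concentration for full growth arrest is given as TGI.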

Experiments:
Assay in all cases: NCI-60 cell line screen, 48 h
A498 renal = system: A498 renal
NCI-H23 lung = system: NCI-H23 lung
SF-295 CNS = system: SF-295 CNS
SF-539 CNS = system: SF-539 CNS
786-0 renal = system: 786-0 renal
A549 NSCLC = system: A549 NSCLC
HCT-116 colon = system: HCT-116 colon
NCI-H522 lung = system: NCI-H522 lung
OVCAR-3 ovarian = system: OVCAR-3 ovarian
HT29 colon = system: HT29 colon
RXF 393 renal = system: RXF 393 renal
CAKI-1 renal = system: CAKI-1 renal
CCRF-CEM leukemia = system: CCRF-CEM leukemia
ACHN renal = system: ACHN renal
COLO 205 colon = system: COLO 205 colon
UO-31 renal = system: UO-31 renal
T-47D breast = system: T-47D breast
HCC-2998 colon = system: HCC-2998 colon
HOP-62 NSCLC = system: HOP-62 NSCLC
M14 melanoma = system: M14 melanoma
SK-OV-3 ovarian = system: SK-OV-3 ovarian
SK-MEL-5 melanoma = system: SK-MEL-5 melanoma
MDA-N = system: MDA-N
HL-60(TB) leukemia = system: HL-60(TB) leukemia
HCT-15 colon = system: HCT-15 colon
OVCAR-4 ovarian = system: OVCAR-4 ovarian
BT-549 breast = system: BT-549 breast
DU-145 prostate = system: DU-145 prostate
SNB-19 CNS = system: SNB-19 CNS
RPMI-8226 leukemia = system: RPMI-8226 leukemia
SW-620 colon = system: SW-620 colon
SR leukemia = system: SR leukemia
U251 CNS = system: U251 CNS
MOLT-4 leukemia = system: MOLT-4 leukemia
UACC-62 melanoma = system: UACC-62 melanoma
MDA-MB-435 = system: MDA-MB-435
PC-3 prostate = system: PC-3 prostate
MALME-3M melanoma = system: MALME-3M melanoma
EKVX NSCLC = system: EKVX NSCLC
LOX IMVI melanoma = system: LOX IMVI melanoma
UACC-257 melanoma = system: UACC-257 melanoma
SK-MEL-28 melanoma = system: SK-MEL-28 melanoma
MDA-MB-231 breast = system: MDA-MB-231 breast
SNB-75 CNS = system: SNB-75 CNS
HOP-92 NSCLC = system: HOP-92 NSCLC
SK-MEL-2 melanoma = system: SK-MEL-2 melanoma
KM12 colon = system: KM12 colon
OVCAR-8 ovarian = system: OVCAR-8 ovarian
IGROV1 ovarian = system: IGROV1 ovarian
NCI-H460 lung = system: NCI-H460 lung
NCI/ADR-RES ovarian = system: NCI/ADR-RES ovarian
K-562 leukemia = system: K-562 leukemia
OVCAR-5 ovarian = system: OVCAR-5 ovarian
NCI-H226 lung = system: NCI-H226 lung
SF-268 CNS = system: SF-268 CNS
MCF7 breast = system: MCF7 breast
TK-10 renal = system: TK-10 renal

## CC(=O)OC[C@]12C[C@H](OC(=O)CC(C)C)C(C)=C[C@H]1O[C@@H]1[C@H](O)[C@@H](O)[C@@]2(C)[C@@]12CO2
A498 renal
  GI50: 16.1 nM
  TGI: 42.4 nM
NCI-H23 lung
  GI50: 17.5 nM
  TGI: 530 nM
SF-295 CNS
  GI50: 27.8 nM
  TGI: 873 nM
SF-539 CNS
  GI50: 13.7 nM
  TGI: 42.7 nM
786-0 renal
  GI50: 21.1 nM
  TGI: 201 nM
A549 NSCLC
  GI50: 22.8 nM
  TGI: 286 nM
HCT-116 colon
  GI50: < 10 nM
  TGI: 34.1 nM
NCI-H522 lung
  GI50: < 10 nM
  TGI: 20.9 nM
OVCAR-3 ovarian
  GI50: 12.9 nM
  TGI: 57.1 nM
HT29 colon
  GI50: 17.4 nM
  TGI: 83.1 nM
RXF 393 renal
  GI50: 17.3 nM
  TGI: 66.5 nM
CAKI-1 renal
  GI50: 36.2 nM
  TGI: 688 nM
CCRF-CEM leukemia
  GI50: 14.7 nM
  TGI: 2120 nM
ACHN renal
  GI50: 20.1 nM
  TGI: 133 nM
COLO 205 colon
  GI50: 39.3 nM
  TGI: 188 nM
UO-31 renal
  GI50: 17.7 nM
  TGI: 118 nM
T-47D breast
  GI50: 18.8 nM
  TGI: 639 nM
HCC-2998 colon
  GI50: < 10 nM
  TGI: 22.6 nM
HOP-62 NSCLC
  GI50: 19.8 nM
  TGI: 1670 nM
M14 melanoma
  GI50: 16.5 nM
  TGI: 162 nM
SK-OV-3 ovarian
  GI50: 29.1 nM
  TGI: 2940 nM
SK-MEL-5 melanoma
  GI50: 12 nM
  TGI: 41 nM
MDA-N
  GI50: 19.8 nM
  TGI: 92.9 nM
HL-60(TB) leukemia
  GI50: 18.2 nM
  TGI: > 100000 nM
HCT-15 colon
  GI50: 17 nM
  TGI: 137 nM
OVCAR-4 ovarian
  GI50: 68.4 nM
  TGI: 1920 nM
BT-549 breast
  GI50: 31.2 nM
  TGI: 712 nM
DU-145 prostate
  GI50: 38.8 nM
  TGI: 267 nM
SNB-19 CNS
  GI50: 15.1 nM
  TGI: 344 nM
RPMI-8226 leukemia
  GI50: < 10 nM
  TGI: 21.3 nM
SW-620 colon
  GI50: 21.5 nM
  TGI: 8250 nM
SR leukemia
  GI50: 10.9 nM
  TGI: 24 nM
U251 CNS
  GI50: 16.4 nM
  TGI: 83.6 nM
MOLT-4 leukemia
  GI50: < 10 nM
  TGI: 13.8 nM
UACC-62 melanoma
  GI50: 19.7 nM
  TGI: 139 nM
MDA-MB-435
  GI50: 23.6 nM
  TGI: 158 nM
PC-3 prostate
  GI50: 23.9 nM
  TGI: 309 nM
MALME-3M melanoma
  GI50: < 10 nM
  TGI: 20.3 nM
EKVX NSCLC
  GI50: 25.6 nM
  TGI: 122 nM
LOX IMVI melanoma
  GI50: < 10 nM
  TGI: 14.1 nM
UACC-257 melanoma
  GI50: 21.1 nM
  TGI: 134 nM
SK-MEL-28 melanoma
  GI50: 20.2 nM
  TGI: 119 nM
MDA-MB-231 breast
  GI50: 83.9 nM
  TGI: 328 nM
SNB-75 CNS
  GI50: 41.8 nM
  TGI: 443 nM
HOP-92 NSCLC
  GI50: 18 nM
  TGI: 68.6 nM
SK-MEL-2 melanoma
  GI50: 22.7 nM
  TGI: 105 nM
KM12 colon
  GI50: 18.7 nM
  TGI: 1290 nM
OVCAR-8 ovarian
  GI50: 17.1 nM
  TGI: 74.7 nM
IGROV1 ovarian
  GI50: < 10 nM
  TGI: 29.8 nM
NCI-H460 lung
  GI50: < 10 nM
  TGI: 50.8 nM
NCI/ADR-RES ovarian
  GI50: 150 nM
  TGI: 2940 nM
K-562 leukemia
  GI50: 12.8 nM
  TGI: 6770 nM
OVCAR-5 ovarian
  GI50: 73.7 nM
  TGI: 2240 nM
NCI-H226 lung
  GI50: 15.4 nM
  TGI: 33.2 nM
SF-268 CNS
  GI50: 27.5 nM
  TGI: 145 nM
MCF7 breast
  GI50: < 10 nM
  TGI: 4070 nM
TK-10 renal
  GI50: 19.8 nM
  TGI: 122 nM
